# Data as given in patent US20240279313A1, “BARRIER FUNCTION PRESERVING PEPTIDES FOR MEMBRANES” (priority 2021, published 2024).
# Columns and labels:
# [1] = Cytotoxicity in the SINV in vitro studies; type: cell-based
# [2] = SAXS, suppression of HIV-TAT-induced cubic phases (NGC)
# [3] = system: C57BL6/J mice challenged with LPS (E. coli O111:B4); test: LPS-induced endotoxemia model, tissue TUNEL+ cells; type: in vivo, mouse; conditions: 10 mg/kg LPS, 24 hours; single dose 250 μg intraperitoneal
# Description: FIG. 5. […] Results obtained from three independent experiments. […] Two-tailed t-test.
# Animal experiments. All mouse experiments were performed according to European guidelines for Care and Use of laboratory Animals. Protocols were approved by the Committee on the Ethics of Animal Experiments of the Regierung von Oberbayern. […] Mice were sacrificed after 24 hours and lung, liver, kidney, and heart tissues were isolated and processed. Immunofluorescence staining was performed on fixed cryosections and imaged using confocal microscopy.
# Animals were housed according to institutional regulations with ad libitum access to food and water. All mice were C57BL/6J background. For the endotoxemia model, female mice (16 weeks old) were challenged with 10 mg/kg LPS from E. coli (0111:B4) and treated with one single dose of 250 μg of apoMP1 intraperitoneally or saline as control. […]
# Cryosections (4 μm) were fixed with cold acetone followed by antigen blockade using 5% goat serum/phosphate buffered saline. […] Cell death (TUNEL^+ cells) was detected using ApopTag® Red in silt Apoptosis Detection Kit (Millipore) following the manufacturer's instructions. […] Histological sections were quantified by computer-assisted morphometric analysis using ImageJ software (National Institutes of Health).
# [4] = HIV-TAT P/L 1/40 + test peptide P/L 1/50
# [5] = HIV-TAT P/L 1/40 + test peptide P/L 1/100
Substance,Cytotoxicity [1],also measured
"GDAVKEWFEKAWQKVKEFL [AP9, GDAVKEWFEKAWQKVKEFL]",minimal cytotoxicity,
"GEKAKEWVQAFWQKAKEYF [AP7, GEKAKEWVQAFWQKAKEYF]",minimal cytotoxicity,
"GDAVKEWFEKAWQKVKEFF [AP4, GDAVKEWFEKAWQKVKEFF]",minimal cytotoxicity,
"GEKLKQKAQEFFDAVKEWF [AP11, GEKLKQKAQEFFDAVKEWF]",minimal cytotoxicity,
"GDAVREWFEKAWQRVREFF [AP1, G-D-A-V-R-E-W-F-E-K-A-W-Q-R-V-R-E-F-F]",minimal cytotoxicity,
"FFERVRQWAKEFWERVADG [AP2, FFERVRQWAKEFWERVADG]",minimal cytotoxicity,
"GEQLKQKFQEFWDKLKEWY [AP10, GEQLKQKFQEFWDKLKEWY]",minimal cytotoxicity,
"D-W-F-K-A-F-Y-D-K-V-A-E-K-F-K-E-A-F (DWFKAFYDKVAEKFKEAF) [apoMP1, well-characterized apolipoprotein A-I mimetic peptide]",,"Cubic phases present ([2]; HIV-TAT P/L 1/40 + test peptide P/L 1/25): complete absence of NGC-rich cubic phases; <K> (NGC) of Pn3m cubic phase [2, 4]: <K> = −2.79E−2 nm^−2; Lattice parameter of Pn3m cubic phase [2, 4]: Pn3m (α = 15.3 nm); <K> (NGC) of Pn3m cubic phase [2, 5]: <K> = −2.26E−2 nm^−2; Lattice parameter of Pn3m cubic phase [2, 5]: Pn3m (α = 17.0 nm); Liver tissue damage (TUNEL+ cells) [3]: fully abrogated; Lung tissue damage (TUNEL+ cells) [3]: fully abrogated"
"GEKVKEFFQAFFQKAKEYW [AP8, GEKVKEFFQAFFQKAKEYW]",minimal cytotoxicity,

# Ends that are not written are not given here.
